# Assay results from patent US20060122276A1, “Agent for inhibiting membrane virus reproduction, method for the production thereof, pharmaceutical composition and method for inhibiting viral infections” (priority 2003, published 2006).
# Like-named read-outs stand apart in the source and are kept apart here.
# Legend:
# HIV-1 [1] = system: HIV-1
# HIV-1 [2] = assay: Treatment of HIV-1-infected patients, blood sample analyses
substance,measurement,setting,value
sodium salt of fullerene-polyamino-caproic acid,"Viability of cells, %","HIV-1 [1]; 0.25 μg/ml, HIV-1-infected lymphoblastoid cells, 5th day",67%
same,"Viability of cells, %","HIV-1 [1]; 0.5 μg/ml, HIV-1-infected lymphoblastoid cells, 5th day",71%
same,"Viability of cells, %","HIV-1 [1]; 1 μg/ml, 2 hrs of contact, washing off of cells No, 6th day",87%
same,"Viability of cells, %","HIV-1 [1]; 1 μg/ml, 2 hrs of contact, washing off of cells No, 8th day",87%
same,"Viability of cells, %","HIV-1 [1]; 1 μg/ml, 2 hrs of contact, washing off of cells Yes, 6th day",69%
same,"Viability of cells, %","HIV-1 [1]; 1 μg/ml, 2 hrs of contact, washing off of cells Yes, 8th day",17%
same,"Viability of cells, %","HIV-1 [1]; 1.0 μg/ml, HIV-1-infected lymphoblastoid cells, 5th day",79%
same,"Viability of cells, %","HIV-1 [1]; 1 μg/ml, exposure 1 hr, washing off of cells Yes, 6th day",83%
same,"Viability of cells, %","HIV-1 [1]; 1 μg/ml, exposure 1 hr, washing off of cells Yes, 8th day",64%
same,"Viability of cells, %","HIV-1 [1]; 1 μg/ml, exposure 2 hrs, washing off of cells Yes, 6th day",88%
same,"Viability of cells, %","HIV-1 [1]; 1 μg/ml, exposure 2 hrs, washing off of cells Yes, 8th day",79%
same,"Viability of cells, %","HIV-1 [1]; 1 μg/ml, exposure 24 hrs, washing off of cells Yes, 6th day",87%
same,"Viability of cells, %","HIV-1 [1]; 1 μg/ml, exposure 24 hrs, washing off of cells Yes, 8th day",89%
same,"Viability of cells, %","HIV-1 [1]; 1 μg/ml, exposure during the entire experiment, washing off of cells No, 6th day",83%
same,"Viability of cells, %","HIV-1 [1]; 1 μg/ml, exposure during the entire experiment, washing off of cells No, 8th day",84%
same,"Viability of cells, %","HIV-1 [1]; 10 μg/ml, 2 hrs of contact, washing off of cells No, 6th day",89%
same,"Viability of cells, %","HIV-1 [1]; 10 μg/ml, 2 hrs of contact, washing off of cells No, 8th day",89%
same,"Viability of cells, %","HIV-1 [1]; 10 μg/ml, 2 hrs of contact, washing off of cells Yes, 6th day",74%
same,"Viability of cells, %","HIV-1 [1]; 10 μg/ml, 2 hrs of contact, washing off of cells Yes, 8th day",35%
same,"Viability of cells, %","HIV-1 [1]; 10 μg/ml, HIV-1-infected lymphoblastoid cells, 5th day",87%
same,"Viability of cells, %","HIV-1 [1]; 10 μg/ml, exposure 2 hrs (first such line, r25), washing off of cells Yes, 6th day",84%
same,"Viability of cells, %","HIV-1 [1]; 10 μg/ml, exposure 2 hrs (first such line, r25), washing off of cells Yes, 8th day",91%
same,"Viability of cells, %","HIV-1 [1]; 10 μg/ml, exposure 2 hrs (second such line, r29), washing off of cells Yes, 6th day",93%
same,"Viability of cells, %","HIV-1 [1]; 10 μg/ml, exposure 2 hrs (second such line, r29), washing off of cells Yes, 8th day",91%
same,"Viability of cells, %","HIV-1 [1]; 10 μg/ml, exposure 24 hrs, washing off of cells Yes, 6th day",92%
same,"Viability of cells, %","HIV-1 [1]; 10 μg/ml, exposure 24 hrs, washing off of cells Yes, 8th day",91%
same,"Viability of cells, %","HIV-1 [1]; 10 μg/ml, exposure during the entire experiment, washing off of cells No, 6th day",91%
same,"Viability of cells, %","HIV-1 [1]; 10 μg/ml, exposure during the entire experiment, washing off of cells No, 8th day",88%
same,"Viability of cells, %","HIV-1 [1]; 100 μg/ml, HIV-1-infected lymphoblastoid cells, 5th day",89%
same,"Viability of cells, %","HIV-1 [1]; preparation 1 hr after infecting, HIV-1",92%
same,"Viability of cells, %","HIV-1 [1]; preparation 2 hrs before infecting, HIV-1",96%
same,"Viability of cells, %","HIV-1 [1]; preparation + virus simultaneously, HIV-1",94%
same,T-index,"HIV-1 [2]; Patient A, after 1 month, 20 mg rectal suppository every day, before treatment 0.9",0.8
same,T-index,"HIV-1 [2]; Patient A, after 2 months, 20 mg rectal suppository every day, before treatment 0.9",1.1
same,T-index,"HIV-1 [2]; Patient A, after 3 months, 20 mg rectal suppository every day, before treatment 0.9",0.9
same,T-index,"HIV-1 [2]; Patient B, after 1 month, 20 mg rectal suppositories every three days, before treatment 0.6",1.3
same,T-index,"HIV-1 [2]; Patient B, after 2 months, 20 mg rectal suppositories every three days, before treatment 0.6",1.0
same,T-index,"HIV-1 [2]; Patient B, after 3 months, 20 mg rectal suppositories every three days, before treatment 0.6",0.8
